# Laboratory results published in ChEMBL document CHEMBL1255335 (Antimicrob Agents Chemother, 2008).
# Test system: Klebsiella pneumoniae
# Details: INSRA1229
sequence,measurement,value
GENTAMICIN,MIC,0.5 µg/mL
